The results in this text go back to patent US10335482B2 (priority 2012, dated 2019).

For some assays here: Plain letter strings leave the end groups untold. For some assays here: Some peptides are written in HELM: one residue between dots, names in brackets for other building blocks, links after the first $.

The nature of the first series: Fmoc solid-phase peptide synthesis; Tenta Gel P RAM, theoretical loading 0.20 meq/g. Conditions: whole synthesis, analytical HPLC.
Consider “KFIIPNIFSALGGAISYDLNTNILNCI”, for which the “final HPLC purity” value is reported as “more than 80%”. Still for that read-out and setting: the same measure for “KFIIPNIFSALSGGGAISYDLNTFLNCIG”: “more than 80%”.

“RNIPIPVGDIYGGGDIYKRWQALCL”: the “final HPLC purity” value was found to be 85%.

A short description of another series: general procedure: Fmoc solid-phase peptide synthesis; Tenta Gel P RAM, theoretical loading 0.20 meq/g. The settings on record: whole synthesis, analytical HPLC.
For the substance “KALGPGATLQTPWTACQGVG-NH2”, the “final HPLC purity” value turned out to be 87%. Still for that read-out and setting: the same measure for “PEPTIDE1{K.A.L.G.P.G.A.T.L.Q.T.P.W.T.A.C.Q.G.V.G.[am]}|PEPTIDE2{W.I.I.P.G.L.N.P.L.V.G.G.G.K.L.Y.S.P.T.S.I.L.C.G.[am]}$PEPTIDE1,PEPTIDE2,16:R3-23:R3$$$V2.0”: 92%; for RAIPIPAGTLLSGGGRAIYKRTAILG: “more than 95%”.

As to RALGPAATLQTPWTASLGVG, the “final HPLC purity” value is “more than 95%”. On the same count and under the same terms, the same measure for RFIIPNIFTALSGGRRALLYGATPYAIG: “more than 95%”. Consider RWLLLGLNPLVGGGRLYSPTSILG, for which the “final HPLC purity” value is listed as “more than 95%”. “WIIPGLNPLVGGGKLYSPTSILCG-NH2”: the “final HPLC purity” value came out at 95%.

The same series, now with this note: whole synthesis, scale 15 mmoles (A-chain) and 30 mmoles (B-chain).
“(H-Gly-Ala-Lys-Arg-Arg-Val-Val-Gly-Gly-Cys(2-oxo-ethyl)-Gly-Gly-Ala-Lys-Arg-Arg-Val-Val-Gln-Arg-Glu-Lys-Arg-Ala-Gly-Glu-Arg-Glu-Lys-Arg-Ala-NH2)(H-Gly-Lys-Gly-Gly-Ile-Glu-Glu-Glu-Gly-Gly-Arg-Asp-Arg-Asp-Arg-Gly-Gly-Gln-Asp-Arg-Asp-Arg-NH2), acetate salt (amide bond between Cys(2-oxo-ethyl)^10 (A-chain) and Lys^2 (B-chain))” gave an isolated mass of 16.6 g.
